Data as given in PubChem BioAssay AID504761 (Drosophila RNAi Screening Center, 2011)

- Test: 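Insect host genes that dengue virus relies on to spread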 (primary screen)
- System: D.Mel-2 cells from Drosophila
- Reagents: long dsRNA against Drosophila genes
- Conditions: infection with dengue virus type 2; dose and infection time not stated
- Measurement: 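Per well on two replicate plates, imaging gave the percent of cells positive for viral envelope protein, ranked by infection, and a nuclear count of cells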
- Direction: infection score: higher = more virus-infected cells; cell count: higher = more cells in the well
- Rule for the call: 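Low infection ranks in the two replicates (chance level up to 0.065) followed by a retest with a 1.5-fold or larger significant decrease, p below 0.05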
- Meaning of the calls: active = confirmed: knock-down lowers infection; inactive = not picked or not confirmed
In all, the deposit lists about 22,000 reagents; below is an unselected part of those with a known target gene and a result. In the full data, 116 (0.52%) got an active call. 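Calls depend on retest data that are not deposited; infection was ranked per plate without normalising between plates; the unit of the infection score is not given.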 Raw values are not corrected between plates. A number with no mark means an inactive call. The record does not give: the amount of reagent, the time to read-out.

gene | DRSC id | infection score, replicate 1 | infection score, replicate 2 | cell count, replicate 1 | cell count, replicate 2
Pdxk (GeneID 39066) | DRSC10419 | 1.42 | 2.71 | 6131 | 6429
cv-d (GeneID 41921) | DRSC16522 | 16.5 | 13.4 | 6437 | 6141
cv-d (GeneID 41921) | DRSC16524 | 3.23 | 9.61 | 6682 | 6179
cv-d (GeneID 41921) | DRSC16526 | 2.96 | 22.9 | 6284 | 4972
CG8539 (GeneID 38842) | DRSC10988 | 10.6 | 0.54 | 6698 | 6677
CG8539 (GeneID 38842) | DRSC21798 | 8.17 | 6.95 | 6673 | 6708
CG8539 (GeneID 38842) | DRSC28192 | 18.4 | 5.66 | 5586 | 7011
psq (GeneID 36118) | DRSC23094 | 3.13 | 2.49 | 6064 | 6420
subdued (GeneID 42340) | DRSC15137 | 9.31 | 2.46 | 6854 | 6738
kuz (GeneID 34772) | DRSC03555 | 4.92 | 2.89 | 6733 | 7086
Plekhm1 (GeneID 37520) | DRSC04527 | 6.98 | 5.61 | 6930 | 6367
Tom70 (GeneID 34618) | DRSC02990 | 5.03 | 4.92 | 6002 | 6360
CG8389 (GeneID 36764) | DRSC07158 | 17.4 | 29.1 | 4326 | 5243
CG8389 (GeneID 36764) | DRSC22855 | 4.6 | 8.03 | 6261 | 5602
CG8389 (GeneID 36764) | DRSC28233 | 10.6 | 13 | 4151 | 4398
Hydr2 (GeneID 33532) | DRSC00607 | 5.93 | 4.74 | 6090 | 6800
CG5704 (GeneID 48613) | DRSC08572 | 21 | 10 | 5842 | 3906
RpS15 (GeneID 36851) | DRSC07151 | 16.7 | – | 2620 | 480
RpS15 (GeneID 36851) | DRSC23462 | 4.78 | 4.87 | 1840 | 2236
CG3649 (GeneID 37626) | DRSC04400 | 6.15 | 11.1 | 6638 | 6674
CG3649 (GeneID 37626) | DRSC28728 | 19.9 | 9.81 | 5546 | 5220
CG17147 (GeneID 40216) | DRSC10249 | 12.1 | 7.26 | 6804 | 7056
CG17147 (GeneID 40216) | DRSC29813 | 19.8 | 6.09 | 6466 | 6162

Laid out differently: entries from further up
gene	DRSC id	infection score, replicate 1	infection score, replicate 2	cell count, replicate 1	cell count, replicate 2
psq (GeneID 36118)	DRSC23094	3.13	2.49	6064	6420
subdued (GeneID 42340)	DRSC15137	9.31	2.46	6854	6738
kuz (GeneID 34772)	DRSC03555	4.92	2.89	6733	7086
